A mixed list of measured activities; the numbers were collected in NIAID ChemDB.

Shared fields: host cell toxicity; cells: MDBK; endpoint: CC50

CCn is the concentration with n% toxicity to the cells.

SMILES | value
COc1c(C)c2c(c(O)c1C/C=C(\C)COP(=O)(O)CP(=O)(O)OC[C@H]1O[C@@H](n3cnc4c(N)ncnc43)[C@H](O)[C@@H]1O)C(=O)OC2 | >100 µM
NC(=O)c1ncn([C@@H]2O[C@H](CO)[C@@H](O)[C@H]2O)c1O | 50.1 µM
COc1c(C)c2c(c(O)c1C/C=C(\C)CCCO)C(=O)OC2 | 37 µM
OC[C@H]1O[C@@H](n2cnc3c(NC4CCCCCC4)nc(Cl)nc32)CC1O | 130 µM
CCC(C)CCC[C@@H](C)CCN1C[C@H](O)[C@@H](O)[C@H](O)[C@H]1CO | 500 µM
OC[C@H]1O[C@@H](n2cnc3c(NC4CCCC4)cc(Cl)nc32)[C@H](O)[C@@H]1O | 180 µM
CCCCCCCCCN1C[C@H](O)[C@@H](O)[C@H](O)[C@H]1CO | ≤300 µM
CC1(C)C2CCC(N3C[C@H](O)[C@@H](O)[C@H](O)[C@H]3CO)C1C2 | >1000 µM
OC[C@@H]1C[C@@H](O)[C@H](n2cnc3c(NC4CCCCC4)nccc32)O1 | >400 µM
C/C=C1/C(O[C@@H]2O[C@H](CO)[C@@H](O)[C@H](O)[C@H]2O)CC=C(C(=O)OC)C1CC(=O)OCCc1ccc(O)c(O)c1 | 1233 µg/mL
Nc1ncnc2c1ncn2[C@H]1CC[C@@H](CO)O1 | <50 µM
O[C@H]1[C@H](O)[C@@H](O)CN2CC[C@H](O)[C@H]12 | >1000 µM
COc1c(C)c2c(c(O)c1C/C=C(\C)CO)C(=O)OC2 | >100 µM
COc1cc(O)c(CC=C(C)C)c(O)c1C(=O)/C=C/c1ccc(O)cc1 | 6.1 µg/mL
COC(=O)/C(C)=C/Cc1c(O)c2c(c(C)c1OC)COC2=O | 91 µM
COCCCCCCCCCN1C[C@H](O)[C@@H](O)[C@H](O)[C@H]1CO | >2000 µM
OC[C@H]1O[C@@H](n2cnc3c(NC4CCCCCC4)cc(Cl)nc32)C[C@@H]1O | 120 µM
COC(=O)Cc1c(O)c2c(c(C)c1OC)COC2=O | >100 µM

Neighbouring rows are from separate reports.